A mixed list of measured activities; the numbers were collected in NIAID ChemDB.

Common to all: growth or infection tests; organism: Mycobacterium tuberculosis

Conditions beyond the fields shown may differ between rows. MIC bound comes from a single tested concentration. A number after MIC or MFC names an inhibition level or a share of isolates. ECn is the concentration giving n% inhibition of infection, replication or growth. Blank or dashed fields: not listed here. Percent inhibition refers to the dose given; in toxicity tests it is the harm to the cells. a–b is a range or a potency band.

SMILES	tested at	strain or isolate	cells	conditions	measure	method	result
COc1ccc(C2SC(C)C(=O)N2NC(=O)COc2ccc(NC(C)=O)cc2)cc1		H37Rv			EC50		>12.5 µg/mL
Cc1ccn2c(C(=O)NCc3ccc(N4CCSCC4)c(F)c3)c(C)nc2c1		H37Rv			MIC90	resazurin	<2 µM
CNc1cc2oc(=O)cc(C)c2cc1C	12.5 µg/mL	H37Rv			inhibition	BACTEC	10%
O=S(=O)(Cc1cn(-c2ccc(Cl)c(Cl)c2)nn1)C1c2ccccc2-c2ccccc21		Specimen 192			MIC99	broth dilution	>219 µM
O=C(CSc1nnc(-c2ccccn2)s1)N/N=c1/scc(-c2ccccc2)n1-c1cccc([N+](=O)[O-])c1		H37Rv			MIC		>80 µg/mL
CN[C@@H]1[C@H](O[C@H]2[C@H](O[C@H]3[C@H](O)[C@@H](O)[C@H](N=C(N)N)[C@@H](O)[C@@H]3N=C(N)N)O[C@@H](C)[C@]2(O)C=O)O[C@@H](CO)[C@H](O)[C@H]1O		H37RV #80			MIC		4 µg/mL
Clc1ccccc1C(c1ccccc1)(c1ccccc1)n1ccnc1		ATCC 35820 (streptomycin-resistant)			MIC50		≥100 µM
CN(C)CCNc1cccc2c1C(=O)c1cccc(NCCN(C)C)c1C2=O		H37Rv			MIC bound	BACTEC	>12.5 µg/mL
Cc1ccn2c(C(=O)NCc3ccc(N4CCN(c5ccc(C(F)(F)F)cc5)CC4)c(F)c3)c(C)nc2c1		H37Rv			MIC90	resazurin	<2 µM
N[C@H](Cc1ccc2oc3cc(=O)c4ccccc4c-3nc2c1)C(=O)O		H37Rv			MIC bound	BACTEC	>12.5 µg/mL
CN[C@@H]1[C@H](O[C@H]2[C@H](O[C@H]3[C@H](O)[C@@H](O)[C@H](N=C(N)N)[C@@H](O)[C@@H]3N=C(N)N)O[C@@H](C)[C@]2(O)C=O)O[C@@H](CO)[C@H](O)[C@H]1O		ATCC 35820 (streptomycin-resistant)			MIC90		≥100 µM
COc1ccc2cc1-c1cc(ccc1O)C[C@H]1c3cc4c(cc3CCN1C)Oc1c(OC)cc3c(c1O4)[C@H](C2)N(C)CC3		H37Rv-ETA-R ATCC 35830			MIC	resazurin	3.1 µg/mL
O=C(Cc1csc2nc(-c3ccc(Cl)cc3)cn12)NN=C1CCCC1		H37Rv			EC50		<6.25 µg/mL
Clc1ccc(-c2c(C(c3ccccc3)n3ccnc3)cnn2-c2ccccc2)cc1		ATCC 27294			MIC50		25.3 µM
O=c1cc(-c2ccccc2O)oc2ccccc12		H37Rv			MIC		>12.5 µg/mL
CC(=O)Nc1ccc(OCC(=O)NN2C(=O)CSC2c2cccc([N+](=O)[O-])c2)cc1	12.5 µg/mL	H37Rv			inhibition		0%
O=C(/C=C/c1ccccc1)c1cccc2ccccc12		H37Rv			MIC		>12.5 µg/mL
COc1ccc(C2C3=C(N=C4SC(C(C)=O)=C(C)N42)c2ccccc2CC3)cc1		H37Rv			MIC bound	BACTEC	>12.5 µg/mL
Clc1ccc(-n2cc(CNC3c4ccccc4-c4ccccc43)nn2)c(Cl)c1		H37Rv			MIC99	broth dilution	>246 µM
COc1ccc(S(=O)(=O)NC(=S)S)cc1		RMP-R			MIC		>12.8 µg/mL
Cc1ccn2c(C(=O)NCc3ccc(N4CCS(=O)(=O)CC4)c(F)c3)c(C)nc2c1		H37Rv			MIC90	resazurin	<2 µM
O=C(Cc1csc2nc(-c3ccccc3)cn12)NN=C1CCCC1	6.25 µg/mL	H37Rv			inhibition		42%
O=C(CNC(=O)Nc1ccc(Cl)c(Cl)c1)N/N=C/c1ccccc1F	12.5 µg/mL	H37Rv			inhibition	BACTEC	36%
NNC(=O)c1ccncc1		H37RV #164			MIC		<0.5 µg/mL
COc1ccc(C2OC(=O)CN2C(=O)c2ccccc2)cc1	12.5 µg/mL	H37Rv			inhibition	BACTEC	9%
O=S(=O)(Cc1cn(-c2ccc(Cl)cc2Cl)nn1)C1c2ccccc2-c2ccccc21		Specimen 192			MIC99	broth dilution	>219 µM
Fc1ccc(-c2c(C(c3ccccc3)n3ccnc3)cnn2-c2ccccc2)cc1		ATCC 35828 (pyrazinamide-resistant)			MIC50		≥100 µM
CCN(CC)c1ccc2nc3c4ccccc4c(=N)cc-3oc2c1	12.5 µg/mL	H37Rv			inhibition	BACTEC	100%
COc1ccc(/C=C/C(=O)c2cc(Cl)ccc2O)cc1		H37Rv			MIC		>12.5 µg/mL
O=C(CSc1nnc(-c2ccccn2)s1)N/N=c1/scc(-c2ccc(Br)cc2)n1-c1ccccc1		H37Rv			MIC		40 µg/mL
NC(=O)c1cnccn1		Isolate K10429			MIC		>500 µg/mL
CC1CCC(=NNC(=O)Cc2csc3nc(-c4ccccc4)cn23)CC1		H37Rv			MIC		>6.25 µg/mL
CC(C)N=c1cc2n(-c3ccc(Cl)cc3)c3ccccc3nc-2cc1Nc1ccc(Cl)cc1		2230		multidrug-resistant	MIC		2 µg/mL
Fc1ccccc1-n1ncc(C(c2ccccc2)n2ccnc2)c1-c1ccccc1		ATCC 35828 (pyrazinamide-resistant)			MIC90		≥100 µM
CC(=O)OC1CCC2(C)C(=CC(C3C=C4CC(OC(C)=O)CCC4(C)C4=C3C3CC5OC6(CCC(C)CO6)C(C)C5C3(C)CC4)C3=C2CCC2(C)C3CC3OC4(CCC(C)CO4)C(C)C32)C1	12.5 µg/mL	H37Rv			inhibition	BACTEC	-7%
Fc1ccccc1-c1c(C(c2ccccc2)n2ccnc2)cnn1-c1ccccc1		ATCC 35820 (streptomycin-resistant)			MIC90		≥100 µM
CC1(C)S[C@@H]2[C@H](NC(=O)[C@H](N)c3ccccc3)C(=O)N2[C@H]1C(=O)O		JNS			MIC		>92 µM
CC(=O)Nc1ccc(OCC(=O)NN2C(=O)CSC2c2ccccc2[N+](=O)[O-])cc1	12.5 µg/mL	H37Rv			inhibition		0%
CO[C@H]1/C=C/O[C@@]2(C)Oc3c(C)c(O)c4c(O)c(c5c(c4c3C2=O)NC2(CCN(CC(C)C)CC2)N=5)=NC(=O)/C(C)=C\C=C\[C@H](C)[C@H](O)[C@@H](C)[C@@H](O)[C@@H](C)[C@H](OC(C)=O)[C@@H]1C		1 isolates (Leu533Pro)			MIC		0.5 µg/mL
CN(C)c1ccc(/C=C/C(=O)c2ccncc2)cc1		H37Rv			MIC		>12.5 µg/mL
O=[n+]1c2ccccc2n([O-])c2ccccc21.[Cl][Cu][Cl]		TAC-R			MIC		1.6 µg/mL
CC1CCC2(CC1)SCC(=O)N2NC(=O)Cc1csc2nc(-c3ccc(Cl)cc3)cn12	6.25 µg/mL	H37Rv			inhibition		65%
O=C(CSc1nnc(-c2ccccn2)s1)N/N=c1/scc(-c2ccccc2)n1-c1cccc(Cl)c1		Clinical isolate 190			MIC		>80 µg/mL
CC(=O)NC[C@H]1CN(c2ccc(N3CCN(c4ccc([N+](=O)[O-])s4)CC3)c(F)c2)C(=O)O1		PC			MIC		0.25 µg/mL
Cc1nc2cc(Cl)ccn2c1C(=O)NCc1ccc2c(c1)CCO2		H37Rv			MIC90	resazurin	<2 µM
COc1ccc2c(=O)c(Br)c(-c3ccc(Cl)cc3)oc2c1		H37Rv			MIC		>12.5 µg/mL
Cc1ccc(-n2cc(CS(=O)(=O)C3c4ccccc4-c4ccccc43)nn2)cc1		Specimen 192			MIC99	broth dilution	125 µM
Cc1ccc2nc(C)c(C(=O)NCc3ccc(S(F)(F)(F)(F)F)cc3)n2c1		H37Rv			MIC90	resazurin	<2 µM
Fc1ccc(-n2ncc(C(c3ccccc3)n3ccnc3)c2-c2ccccc2)cc1		ATCC 27294			MIC50		65.3 µM
CC1(C)C=Cc2c(ccc(C(=O)Cc3ccccc3)c2O)O1	12.5 µg/mL	H37Rv			inhibition	BACTEC	19%
O=C(CSc1nnc(-c2ccccn2)s1)N/N=c1/scc(-c2ccccc2)n1-c1ccccc1		Clinical isolate 190			MIC		80 µg/mL
C[C@@H]1Cn2cc(C(=O)O)c(=O)c3cc(F)c(N4CCN(/C(N)=N/C(N)=NCCCCCCN=C(N)/N=C(\N)N5CCN(c6c(F)cc7c(=O)c(C(=O)O)cn8c7c6O[C@@H](C)C8)CC5)CC4)c(c32)O1		ATCC 35827			MIC	broth dilution	1.25–2.5 µg/mL
COc1ccc2cc1-c1cc(ccc1O)C[C@@H]1NCCc3cc4c(cc31)Oc1c(c(OC)cc3c1[C@H](C2)N(C)CC3)O4		H37Rv-ETA-R ATCC 35830			MIC	resazurin	6.2 µg/mL
CCOC(=O)c1nnc(-c2ccccc2)nc1Cl	12.5 µg/mL	H37Rv			inhibition	BACTEC	0%
CCOc1ccc(NC(=S)Nc2ccc(OCC(C)C)cc2)cc1		H37RV #302			MIC		2 µg/mL
Cc1ccn2c(C(=O)NCc3ccnc(N4CCC(c5ccc(C(F)(F)F)cc5)CC4)c3)c(C)nc2c1		H37Rv			MIC90	resazurin	<2 µM
O=C(CSc1nnc(-c2ccccn2)s1)N/N=c1/scc(-c2ccccc2Cl)n1-c1ccccc1		Clinical isolate 180			MIC		20 µg/mL
O=c1cc(-c2ccc(O)cc2)oc2ccccc12		H37Rv			MIC		>12.5 µg/mL
Nc1ccc(C(=O)Nc2cccc(C(=O)Nc3ccc4c(O)c(N=Nc5ccc(N=Nc6ccc(S(=O)(=O)O)cc6)cc5)c(S(=O)(=O)O)cc4c3)c2)cc1	12.5 µg/mL	H37Rv			inhibition	BACTEC	12%
CC1CCCC2(C1)SC(C)C(=O)N2NC(=O)Cc1csc2nc(-c3ccc(Cl)cc3)cn12		H37Rv			MIC		>6.25 µg/mL
COc1ccc(/C=C/C(=O)c2cc(Br)ccc2O)cc1		H37Rv			MIC		>12.5 µg/mL
Cc1cccc(-n2c(-c3ccccc3)cs/c2=N/NC(=O)CSc2nnc(-c3ccccn3)s2)c1		Clinical isolate 331			MIC		>80 µg/mL
Cc1ccn2c(C(=O)NCc3ccc(N4CCCN(c5ccc(S(F)(F)(F)(F)F)cc5)CC4)cc3)c(C)nc2c1		H37Rv			MIC90	resazurin	<2 µM
CCC1CCC2(CC1)SC(C)C(=O)N2NC(=O)Cc1csc2nc(-c3ccccc3)cn12.O.O		H37Rv	VERO		MIC		3.13 µg/mL
COc1ccc(OC)c(NC(=O)Sc2c(Cl)c(Cl)nc(Cl)c2Cl)c1		H37Rv			MIC bound	resazurin	>6.25 µg/mL
CC(=O)Nc1ccc(OCC(=O)NN2C(=O)CSC2c2ccccc2)cc1		H37Rv			EC50		>12.5 µg/mL
O=C1Nc2ccccc2C12OCCS2	12.5 µg/mL	H37Rv			inhibition	BACTEC	-2%
Fc1ccc(-n2cc(CSC3c4ccccc4-c4ccccc43)nn2)cc1Cl		H37Rv			MIC99	broth dilution	246 µM
COc1cccc(N=Nc2c(C)[nH]n(C(N)=S)c2=O)c1	12.8 µg/mL	H37Rv			inhibition	BACTEC	53%
COc1cc(OC)c2c(=O)cc(-c3cc(OC)c(OC)c(OC)c3)oc2c1	12.5 µg/mL	H37Rv			inhibition		0%
O=C(Nc1ccc(Cl)cc1)Nc1nnc2nc(CC(=O)c3ccc4ccccc4c3)c(=O)[nH]n12		H37Rv			MIC bound	BACTEC	>12.5 µg/mL
Cc1ccn2c(C(=O)NCc3ccc(N4CCC(NC(=O)OC(C)(C)C)CC4)c(F)c3)c(C)nc2c1		H37Rv			MIC90	resazurin	<2 µM
COC(=O)NC12CC3CC(C(C)O1)C2N(Cc1ccccc1)C3		H37Rv			MIC	BACTEC	≥12.5 µg/mL
O=C(/C=C/c1ccccc1)c1cccc(I)c1O		H37Rv			MIC		>12.5 µg/mL
CC(C)(C)O/N=C/c1cc(NC(=S)c2ccsc2)ccc1Cl		H37Rv			MIC	BACTEC	12.5 µg/mL
Clc1ccc(-n2ncc(C(c3ccccc3)n3ccnc3)c2-c2ccccc2)c(Cl)c1		ATCC 35822 (isoniazid-resistant)			MIC90		99.6 µM
CC1=NN(c2ccccc2)C(=O)C1N=Nc1ccccc1S(=O)(=O)[O-].[Na+]	12.8 µg/mL	H37Rv			inhibition	BACTEC	21%
COc1cc(C2SCC(=O)N2NC(=O)COc2ccc(NC(C)=O)cc2)ccc1O	12.5 µg/mL	H37Rv			inhibition		0%

10 of the rows above, restated:

SMILES	tested at	strain or isolate	cells	conditions	measure	method	result
CNc1cc2oc(=O)cc(C)c2cc1C	12.5 µg/mL	H37Rv			inhibition	BACTEC	10%
CC(=O)OC1CCC2(C)C(=CC(C3C=C4CC(OC(C)=O)CCC4(C)C4=C3C3CC5OC6(CCC(C)CO6)C(C)C5C3(C)CC4)C3=C2CCC2(C)C3CC3OC4(CCC(C)CO4)C(C)C32)C1	12.5 µg/mL	H37Rv			inhibition	BACTEC	-7%
COc1ccc(C2C3=C(N=C4SC(C(C)=O)=C(C)N42)c2ccccc2CC3)cc1		H37Rv			MIC bound	BACTEC	>12.5 µg/mL
O=C(Cc1csc2nc(-c3ccccc3)cn12)NN=C1CCCC1	6.25 µg/mL	H37Rv			inhibition		42%
CCN(CC)c1ccc2nc3c4ccccc4c(=N)cc-3oc2c1	12.5 µg/mL	H37Rv			inhibition	BACTEC	100%
Fc1ccc(-n2ncc(C(c3ccccc3)n3ccnc3)c2-c2ccccc2)cc1		ATCC 27294			MIC50		65.3 µM
COC(=O)NC12CC3CC(C(C)O1)C2N(Cc1ccccc1)C3		H37Rv			MIC	BACTEC	≥12.5 µg/mL
CC1CCC(=NNC(=O)Cc2csc3nc(-c4ccccc4)cn23)CC1		H37Rv			MIC		>6.25 µg/mL
O=C(/C=C/c1ccccc1)c1cccc2ccccc12		H37Rv			MIC		>12.5 µg/mL
CC(=O)NC[C@H]1CN(c2ccc(N3CCN(c4ccc([N+](=O)[O-])s4)CC3)c(F)c2)C(=O)O1		PC			MIC		0.25 µg/mL